How the values were obtained:
M-RQW = M-RQW (Gibberella zeae, UniProt P0CS93, G236E/M111V/N576D/Q447T/R371K/S51P/V535A/W331F)
mutant (RQW) GAO = mutant (RQW) GAO (Gibberella zeae, UniProt P0CS93, G236E/M111V/N576D/Q447T/R371K/S51P/V535A/W331F); conditions: for Mutant Activity: mutant RQW, substrate concentration in parentheses in each cell; for Relative rate of reaction, Mutant M-RQW: relative to D-galactose (=100)
wild-type (Fusarium GAO) = wild-type (Fusarium GAO) (Gibberella zeae, UniProt P0CS93); test: ABTS-HRP activity assay of purified wild-type GAO towards various substrates; conditions: for Relative rate of reaction, Wild-Type GAO: relative to D-galactose (=100); for Wild-Type Activity: substrate concentration in parentheses in each cell

Row | Molecule | regioselectivity of oxidation by M-RQW (NMR) (M-RQW; 200 mM substrate) | Mutant Activity (mutant (RQW) GAO) | Relative rate of reaction, Mutant M-RQW (mutant (RQW) GAO) | Relative rate of reaction, Wild-Type GAO (wild-type (Fusarium GAO)) | Wild-Type Activity (wild-type (Fusarium GAO)) | decrease in Km (mutant (RQW) GAO; M-RQW versus wild-type enzyme) | Km (wild-type (Fusarium GAO); wild-type enzyme) | oxidation product with M-RQW by GC-MS (M-RQW; 50 mM substrate, room temperature)
1 | CO[C@H]1CC(O)[C@H](O)C(CO)O1 (some centres unmarked) | No oxidation was detected at the other positions | 1.32 (0.42 M) U/mg | 3.3 | 0 | 0 (1 M) U/mg |  |  | 
2 | Allyl Alochol |  | 121 (50 mM) U/mg | 2500 | 0.3 | 0.946 (0.5 M) U/mg |  |  | 
3 | CO[C@H]1OC(CO)[C@@H](O)C(O)C1O (some centres unmarked) |  | 0.19 (0.42 M) U/mg |  |  | 0 (0.5 M) U/mg |  |  | 
4 | O=C(CO)CO |  | 52.2 (0.3 mM) U/mg | 1600 | 200 | 41.7 (3 mM) U/mg | more than 6 fold | 17 mM | 
5 | OCc1cccnc1 |  |  | 35000 | 5 |  |  |  | 
6 | OCc1ccccn1 |  |  | 180000 | 0.6 |  |  |  | 
7 | O=CC[C@H](O)[C@H](O)CO |  | 1.40 × 10^−4(0.25 M) U/mg |  |  | 0 (50 mM) U/mg |  |  | 
8 | CO[C@@H]1CC(O)[C@H](O)C(CO)O1 (some centres unmarked) |  | 0.98 (0.42 M) U/mg |  |  | 0 (50 mM) U/mg |  |  | 
9 | CO[C@@H]1OC(C)[C@@H](O)C(O)C1O (some centres unmarked) |  | 0.10 (0.42 M) U/mg |  |  | 0 (1 M) U/mg |  |  | 
10 | CO[C@@H]1OC(CO)[C@H](O)C(O)C1O (some centres unmarked) |  | 9.21 (0.1 M) U/mg |  |  | 155 (50 mM) U/mg |  |  | 
11 | 2-butanol |  |  |  |  |  |  |  | 2-butanone
12 | OC[C@H]1O[C@@H](O[C@H]2[C@H](O)[C@@H](O)[C@H](O)O[C@@H]2CO)[C@H](O)[C@@H](O)[C@H]1O |  | 6.76(67.8 mM) U/mg | 18.7 | 48 | 58.3 (50 mM) U/mg |  |  | 
13 | D-Fructose |  | 8.10 (0.25 M) U/mg |  |  | 0 (1 M) U/mg |  |  | 
14 | C[C@@H](O)[C@H](O)[C@H](O)[C@@H](O)C=O |  | 2.29 × 10^−3(0.27 M) U/mg |  |  | 8.56 (50 mM) U/mg |  |  | 
15 | CO[C@H]1OC(C)[C@@H](O)C(O)C1O (some centres unmarked) |  | 0.34 (0.42 M) U/mg |  |  | 0 (1 M) U/mg |  |  | 
16 | OCc1ccncc1 |  | 41.7 (0.5 mM) U/mg | 81000 | 1.3 | 7.74 (100 mM) U/mg |  |  | 
17 | 3-Buten-2-ol |  | 3.52 (0.5 M) U/mg | 6.9 | 0 | 3.52 × 10^−2(0.5 M) U/mg |  |  | 
18 | CO[C@@H]1OC(CO)[C@@H](O)C(O)C1O (some centres unmarked) |  | 0.683 (0.6 M) U/mg |  |  | 0 (1 M) U/mg |  |  | 
19 | 2-Propanol |  | 2.98 (0.5 M) U/mg | 5.7 | 0 | 2.09 × 10^−2(0.5 M) U/mg |  |  | 
20 | CCCCCCC(C)O (centres unmarked) |  | 2.85(Saturated) U/mg |  |  | 0 (Saturated) U/mg |  |  | 

Reference: patent publication US7220563B2 (priority 2002, dated 2007)
